Among the data in ChEMBL document CHEMBL3228038 (J Med Chem, 1979) are Activity, fold change (FC) and inhibition values, retold here.

Active and inactive are the calls of the source. The rule behind the calls is not given here.

The subject of experiment [1] is Mus musculus. The experiment in a line: Analgesic activity in Swiss Webster mouse at 0.6 to 4.8 nmol, icv after 2 hrs by tail flick test. A general note: In hot-plate and tail-flick tests a longer latency is read as antinociception.
Experiment [2] has as its system Mus musculus. Kind of experiment: Analgesic activity in Swiss Webster mouse at 4.8 nmol, icv after 60 mins by tail flick test.
For experiment [3], the system named is Mus musculus. Kind of experiment: Effect on development of dependence to morphine in Swiss Webster mouse assessed as increase in naloxone ED50 for eliciting withdrawal jumping at 0.24 nmol, icv after 72 hrs relative to control. The experiment is classed as functional, organism-based. The method in brief:
(§1)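 Male Swiss Webster mice, 20-25 g. Given icv injection (4 µL saline vehicle) immediately after sc implantation of a 50 mg morphine or placebo pellet. At 24 and 72 h, naloxone given sc (10 mL/kg saline) and ED50 taken for precipitated withdrawal jumping (Way method). Groups of 4-5 mice per ED50.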

Experiment [4] concerns Mus musculus. The experiment in a line: Inhibition of morphine-induced analgesia in Swiss Webster mouse assessed as change in morphine ED50 at 2.4 nmol, icv after 2 hrs by tail flick test. It is filed as functional, organism-based.
Experiment [5] has as its system Mus musculus. Kind of experiment: Effect on development of dependence to morphine in Swiss Webster mouse assessed as increase in naloxone ED50 for eliciting withdrawal jumping at 0.24 nmol, icv after 24 hrs relative to control. It is filed as functional, organism-based. In short, it runs like this:
as §1

The subject of experiment [6] is Mus musculus. The experiment in a line: Inhibition of morphine-induced analgesia in Swiss Webster mouse assessed as change in morphine ED50 at 1.2 nmol, icv after 10 mins in presence of naloxone.
Experiment [7] deals with Mus musculus. Kind of experiment: Analgesic activity in Swiss Webster mouse at 4.8 nmol, icv after 10 to 20 mins by tail flick test relative to control.
The test system of experiment [8] is Mus musculus. The experiment in a line: Inhibition of morphine-induced analgesia in Swiss Webster mouse assessed as increase in morphine ED50 at 1.2 nmol, icv after 72 hrs by tail flick test relative to control.
Experiment [9] concerns Mus musculus. The experiment in a line: Inhibition of morphine-induced analgesia in Swiss Webster mouse assessed as increase in morphine ED50 at 0.6 nmol, icv after 2 hrs by tail flick test.
Experiment [10] relates to Mus musculus. Kind of experiment: Inhibition of morphine-induced analgesia in Swiss Webster mouse assessed as increase in morphine ED50 at 1.2 nmol, icv after 2 hrs by tail flick test relative to control.
Experiment [11] relates to Mus musculus. Kind of experiment: Inhibition of morphine-induced analgesia in Swiss Webster mouse assessed as increase in morphine ED50 at 1.2 nmol, icv after 24 hrs by tail flick test relative to control.

Regarding `Oc1ccc2c3c1O[C@H]1[C@H](N(CCCl)CCCl)CC[C@@]4(O)[C@@H](C2)N(CC2CC2)CC[C@]314`, the result with Mus musculus [1] and with Mus musculus [2] was inactive. Further, the fold change (FC) was greater than 5 with Mus musculus [3]; 179 in the experiment on Mus musculus [4]; 14 in the experiment on Mus musculus [5]; 2 in the experiment on Mus musculus [8]; 7 in the experiment with Mus musculus [9]; 66 in the experiment with Mus musculus [10]. The fold change (FC) in the experiment on Mus musculus [11] is 6. In addition, in the experiment with Mus musculus [6], the inhibition entry is “inactive”. Also, the Activity in the experiment on Mus musculus [7] is 18%.
